Laboratory results published in ChEMBL document CHEMBL1671710, “Different classes of antibiotics differentially influence shiga toxin production” (2010).

System: Escherichia coli
Settings: C600::933W

GENTAMICIN
MIC: 0.5 µg/mL
